Compound potency records, mixed from different reports. Data source: NIAID ChemDB in PubChem.

Common to all: whole-cell or culture tests; organism: Adenovirus; read-out: EC50

Rows are shuffled and stem from different studies.

SMILES,strain,cell line,read by,result
CC1(C)CC[C@]2(C(=O)O)CC[C@]3(C)C(=CC[C@@H]4[C@@]5(C)CC[C@H](O)C(C)(C)[C@@H]5CC[C@]43C)[C@@H]2C1,TYPE 11,BCC-1/KMC,cytopathic effect,>40 µg/mL
NC(=S)c1cn([C@H]2C[C@H](O)[C@@H](CO)O2)c2ncnc(N)c12,adenoid 75 (TYPE 5),HeLa,plaque count,1 µM
O=C(O)P(=O)(O)O,TYPE 2,HEL,PCR,>500 µM
Nc1ncnc2c1ncn2C[C@@H](CO)OCP(=O)(O)O,TAK (TYPE 41),,cytopathic effect,1 µg/mL
N#Cc1c(SCCCBr)nsc1-c1ccccc1,TYPE 2,HEP-2,plaque count,>25 µg/mL
Cc1cn(CC(CO)OCP(=O)(O)O)c(=O)[nH]c1=O,3 TYPES,HEL,cytopathic effect,>125 µg/mL
Nc1ccn([C@H]2CC[C@@H](CO)O2)c(=O)n1,TYPE 11,BCC-1/KMC,cytopathic effect,14.2 µg/mL
O=c1c(O)c(-c2ccc(O)cc2)oc2cc(O)cc(O)c12,TYPE 2,VERO,,10 µg/mL
N/C(=N/O)c1cn([C@H]2C[C@H](O)[C@@H](CO)O2)c2ncnc(N)c12,adenoid 75 (TYPE 5),HeLa,plaque count,8 µM
Nc1nc2c(ncn2C[C@]2(CO)C[C@H]2CO)c(=O)[nH]1,TYPE 2,HEL,PCR,614 µM
O=C(O)/C=C/c1ccc(O)cc1,TYPE 8,BCC-1/KMC,cytopathic effect,>200 µg/mL
Nc1ccn(C[C@@H](CO)OCP(=O)(O)O)c(=O)n1,adenoid 6 (TYPE 2),,cytopathic effect,8 µg/mL
Nc1nc(N)c2ncn(CC(CO)OCP(=O)(O)O)c2n1,3 TYPES,HEL,cytopathic effect,2.8 µg/mL
Nc1ncnc2c1ncn2C[C@@H](CO)OCP(=O)(O)O,TYPE 2,HEL,PCR,0.19 µg/mL
NC(=O)c1ncn([C@@H]2O[C@H](CO)[C@@H](O)[C@H]2O)n1,TYPE 2,HEL,cytopathic effect,>250 µM
O=c1[nH]c(=O)n([C@H]2C[C@H](O)[C@@H](CO)O2)cc1/C=C/Br,TYPE 3,VERO,plaque count,50–100 µM
Nc1cc(OC[C@H](CO)OCP(=O)(O)O)nc(N)n1,TYPE 2,HEL,,7.5 µM
Cc1cn(COC(CP(=O)(O)O)C(C)O)c(=O)[nH]c1=O,TYPE 2,HEP-2,cytopathic effect,>320 µg/mL
Nc1ncnc2c1ncn2[C@@H]1C[C@@H](O)[C@H](CO)O1,TYPE 1,A549,,>100 µM
Nc1ncnc2c1ncn2C[C@H]1COP(=O)(O)CO1,3 TYPES,HEL,cytopathic effect,0.37 µg/mL
NC(=O)c1nc(F)c[nH]c1=O,,A549,plaque count,>100 µg/mL
COc1cc(/C=C/C(=O)O)ccc1O,TYPE 3,BCC-1/KMC,cytopathic effect,>100 µg/mL
Nc1cc(OC[C@@H](CO)OCP(=O)(O)O)nc(N)n1,TYPE 2,HEL,cytopathic effect,10 µM
CSc1nsc(-c2ccccc2)c1C(N)=O,TYPE 2,HEP-2,plaque count,>250 µg/mL
Nc1ncc2c(ncn2COC(CO)CO)n1,TYPE 2,HEL,PCR,1.2 µM
COC(=O)c1c(SC)nsc1-c1ccccc1,TYPE 2,HEP-2,plaque count,>100 µg/mL
Nc1ncnc2c1ncn2[C@@H]1C[C@@H](O)[C@H](CO)O1,TYPE 1,A549,,>100 µM
O=c1[nH]cnc2c1ncn2CC(CO)OCP(=O)(O)O,3 TYPES,HEL,cytopathic effect,>125 µg/mL
NC(=O)c1cn([C@@H]2O[C@H](CO)[C@@H](O)[C@@H]2O)c2ncnc(N)c12,adenoid 75 (TYPE 5),HeLa,plaque count,8 µM
CSc1nsc(-c2ccccc2)c1C(=O)O,TYPE 2,HEP-2,plaque count,>500 µg/mL
OCC1=C[C@@H](O)[C@@H]2C=CO[C@@H](O[C@@H]3O[C@H](CO)[C@@H](O)[C@H](O)[C@H]3O)[C@H]12,TYPE 11,BCC-1/KMC,cytopathic effect,>200 µg/mL
CCOP(=O)(O)CC(OCn1cc(C)c(=O)[nH]c1=O)C(C)O,TYPE 2,HEP-2,cytopathic effect,>320 µg/mL
NC(=O)c1ncn([C@@H]2O[C@H](CO)[C@@H](O)[C@H]2O)n1,TYPE 2,HeLa,cytopathic effect,12.5 µg/mL
O=C(O)/C=C/c1ccc(O)c(O)c1,TYPE 8,BCC-1/KMC,cytopathic effect,>200 µg/mL
NC(=O)c1c[se]c([C@@H]2O[C@H](CO)[C@@H](O)[C@H]2O)n1,Type 2/adenoid 6,HeLa,cytopathic effect,9 µg/mL
N#CCSc1nsc(-c2ccccc2)c1C#N,TYPE 2,HEP-2,plaque count,>10 µg/mL
O=c1ccn([C@H]2C[C@H](F)[C@@H](CO)O2)c(=O)[nH]1,TYPE 2,HEL,PCR,>100 µM
Nc1ncnc2c1ncn2C[C@H](CO)OCP(=O)(O)O,13306 (TYPE 8),,cytopathic effect,4 µg/mL
N#Cc1c(N2CCCCC2)nsc1-c1ccccc1,TYPE 2,HEP-2,plaque count,>25 µg/mL

Blank or dashed fields: not listed here. Two numbers with a dash give a range or band. ECn is the concentration giving n% inhibition of infection, replication or growth.